Results of unrelated studies side by side (data: NIAID ChemDB).

Shared fields: growth or infection tests; organism: Hepatitis C virus; cells: Huh7; endpoint: EC50

a–b is a range or a potency band. ECn: concentration that inhibits the pathogen or its effect by n%. Lines come from different laboratories, so protocols vary.

CCCCOc1ccc2oc(-c3ccccc3)c(C(=O)NC)c2c1 ; method: replicon ; value: <30 µM
O=C(Nc1ccc(C2SC(=Nc3ccc(C(F)(F)F)cc3)N(Cc3ccco3)C2=O)cc1)[C@H]1CCCN1C(=O)OCc1ccccc1 ; method: replicon ; value: 0.1–1 µM
O=C(Cc1ccccc1)N/N=C/c1ccccc1OS(=O)(=O)c1ccccc1OC(F)(F)F ; method: replicon ; value: >50 µM
CNC(=O)c1c(-c2ccc(F)cc2)oc2cc(-c3c(C)noc3C)c(OC(C)C)cc12 ; method: replicon ; value: <1 µM
O=C(Cc1cccc(Br)c1)N/N=C/c1ccccc1OS(=O)(=O)c1ccc(C(F)(F)F)cc1 ; method: replicon ; value: <5 µM
COC1c2ccccc2-c2c(C3CCCCC3)c3ccc(C(=O)NC4(C(=O)Nc5ccc(/C=C/C(=O)O)cc5)CCCC4)cc3n21 ; method: replicon ; value: 0.01–1 µM
CNC(=O)c1c(-c2ccc(F)cc2)oc2cc(N(CC3(CO)CC3)S(C)(=O)=O)c(OCC3(CO)CC3)cc12 ; method: replicon ; value: <1 µM
O=C(CCCc1ccccc1)N/N=C/c1ccccc1OS(=O)(=O)c1ccc(C(F)(F)F)cc1 ; method: replicon ; value: <5 µM
COc1cccc(CN2C(=O)C(c3ccc(NC(=O)C4CCCN4C(=O)OCc4ccccc4)cc3)SC2=Nc2cccc(F)c2)c1 ; method: replicon ; value: 0.1–1 µM
CNC(=O)c1c(-c2ccc(F)cc2)oc2cc(N3CCCC3)c(OC(C)C)cc12 ; method: replicon ; value: <1 µM
O=C(O)c1ccc2c(C3CCCCC3)c3n(c2c1)C[C@@H](O)[C@@H](O)c1ccccc1-3 ; method: replicon ; value: 1–10 µM
CNC(=O)c1c(-c2ccc(F)cc2)oc2cc(N3CCOCC3)c(OCc3nnnn3C)cc12 ; method: replicon ; value: <10 µM
COc1cccc(CC(=O)N/N=C/c2cc(C)ccc2OS(=O)(=O)c2ccc(C(F)(F)F)cc2)c1 ; method: replicon ; value: <5 µM
CO[C@@H](C(=O)N[C@H](C)C(=O)Nc1ccc(C2SC(=NC(C)C)N(Cc3ccccn3)C2=O)cc1)c1ccccc1 ; method: replicon ; value: <0.1 µM
CNC(=O)c1c(-c2ccc(F)cc2)oc2cc(N(C)S(C)(=O)=O)c(OCC#N)cc12 ; method: replicon ; value: <1 µM
COC(=O)c1ccc2c(C3CCCCC3)c3n(c2c1)CC(=O)N3Cc1ccccc1 ; method: replicon ; value: 1–10 µM
CC(C)Oc1nc(N)nc2ccc(-c3ccc(NC(=O)C(C)C)cc3)nc12 ; method: replicon ; value: <0.3 µM
COc1c(-c2ccc3cc(NS(C)(=O)=O)ccc3c2)cc(-n2ccc(=O)[nH]c2=O)cc1C(C)(C)C ; strain or isolate: genotype 1b Con1 ; mutations: S368T ; method: luciferase ; value: 0.082 µM
CCOc1nc(N)nc2ccc(-c3cccc(NS(=O)(=O)c4cn(C)cn4)c3)nc12 ; method: replicon ; value: 0.3–1 µM
O=C(O)c1ccc2c(C3CCCCC3)c3n(c2c1)CC(C(=O)N1CCOCC1)Cc1cccnc1-3 ; method: replicon ; value: 1–10 µM
COCCNc1nc(N)nc2ccc(-c3ccc(C(=O)NC4CC4)cc3)nc12 ; method: replicon ; value: <0.3 µM
O=C(O)c1ccc2c(C3CCCCC3)c3n(c2c1)CC(C(=O)O)Cc1ccccc1-3 ; method: replicon ; value: >10 µM
CNC(=O)c1c(-c2ccc(F)cc2)oc2cc(N3CCS(=O)CC3)c(OC(C)C)cc12 ; method: replicon ; value: <10 µM
CC(C)C(=O)Nc1ccc(-c2ccc3nc(N)nc(OCCF)c3n2)cc1 ; method: replicon ; value: 0.3–1 µM
Cc1ccc(Oc2ccccc2/C=N/NC(=O)Cc2ccccc2)cc1 ; method: replicon ; value: >50 µM
CCOc1nc(N)nc2ccc(-c3ccc(-c4nnc(C)o4)cc3)nc12 ; method: replicon ; value: >1 µM
O=C(O)/C=C/c1ccc2nc(C3(NC(=O)c4ccc5c(C6CCCCC6)c6c7ccccc7ncn6c5c4)CCCC3)[nH]c2c1 ; method: replicon ; value: 0.01–1 µM
CNC(=O)c1c(-c2ccc(F)cc2)oc2cc(C3CCN(S(C)(=O)=O)C3)c(OC)cc12 ; method: replicon ; value: <1 µM
COc1cc(CNC(=O)c2ccc3c(C4CCCCC4)c4n(c3c2)CC(=O)Nc2ccccc2-4)ccc1O ; method: replicon ; value: 0.01–1 µM
CCNC(=O)c1c(-c2ccccc2)oc2ccc(OC)cc12 ; method: replicon ; value: <10 µM
O=C(Nc1ccc(C2SC(=Nc3cccc(F)c3)N(Cc3ccc(OC(F)(F)F)cc3)C2=O)cc1)[C@H]1CCCN1C(=O)OCc1ccccc1 ; method: replicon ; value: 1–5 µM

The last 3 rows once more:

{"smiles": "COc1cc(CNC(=O)c2ccc3c(C4CCCCC4)c4n(c3c2)CC(=O)Nc2ccccc2-4)ccc1O", "method": "replicon", "value": "0.01–1 µM"}
{"smiles": "CCNC(=O)c1c(-c2ccccc2)oc2ccc(OC)cc12", "method": "replicon", "value": "<10 µM"}
{"smiles": "O=C(Nc1ccc(C2SC(=Nc3cccc(F)c3)N(Cc3ccc(OC(F)(F)F)cc3)C2=O)cc1)[C@H]1CCCN1C(=O)OCc1ccccc1", "method": "replicon", "value": "1–5 µM"}